PubChem BioAssay AID504761, Drosophila RNAi Screening Center, 2011

- Aim: 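Genome-wide fly cell screen for genes dengue virus requires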 (primary screen)
- System: D.Mel-2 cells from Drosophila
- Reagent: long dsRNA against Drosophila genes
- Treatment: infection with dengue virus type 2; dose and infection time not stated
- Measured: 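Cells stained for dengue envelope protein and imaged; percent of infected cells per well on duplicate plates, ranked by infection, with stained nuclei counted for cell number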
- Direction: infection score: higher = more virus-infected cells; cell count: higher = more cells in the well
- Hit rule: 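Very low infection ranking in both replicate wells (chance probability at most 0.065), then a retest showing infection dropped 1.5-fold or more at p below 0.05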
- Calls: active = confirmed: knock-down lowers infection; inactive = not picked or not confirmed
The deposit covers about 22,000 reagents; shown is a random part of those with a known target gene and a result. Of all reagents, 116 (0.52%) got an active call. 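Calls depend on retest data that are not deposited; infection was ranked per plate without normalising between plates; the unit of the infection score is not given.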 Raw values vary from plate to plate and are shown uncorrected. Names joined by + are all predicted targets of the reagent. Not given: the amount of reagent, the time to read-out.

Silencing of CG8136 [DRSC16385] came out at: infection score, replicate 1 = 1.84; infection score, replicate 2 = 7.2; cell count, replicate 1 = 6455; cell count, replicate 2 = 6615; inactive.
Depletion of CG8136 [DRSC28135] resulted in: infection score, replicate 1 = 3.17; infection score, replicate 2 = 11.2; cell count, replicate 1 = 6709; cell count, replicate 2 = 5154; inactive.
With knock-down of Sr-CIII [DRSC22262], the record shows infection score, replicate 1 = 1.78; infection score, replicate 2 = 3.45; cell count, replicate 1 = 6186; cell count, replicate 2 = 6382; inactive.
Silencing of RpL7-like + CG34164 [DRSC02836] gave: infection score, replicate 1 = 5.36; infection score, replicate 2 = 4.48; cell count, replicate 1 = 6403; cell count, replicate 2 = 6319; inactive.
For RpL7-like + CG34164 [DRSC02837] the deposit lists infection score, replicate 1 = 12.2; infection score, replicate 2 = 15.5; cell count, replicate 1 = 6402; cell count, replicate 2 = 5450; inactive.
After knock-down of CG42264 [DRSC18074], the screen gave infection score, replicate 1 = 2.09; infection score, replicate 2 = 2.94; cell count, replicate 1 = 6618; cell count, replicate 2 = 6944; inactive.
For CG42264 [DRSC18075], the values are infection score, replicate 1 = 13.9; infection score, replicate 2 = 11; cell count, replicate 1 = 5866; cell count, replicate 2 = 5375; inactive.
For CG42264 [DRSC28051], the values are infection score, replicate 1 = 4.99; infection score, replicate 2 = 22.2; cell count, replicate 1 = 5950; cell count, replicate 2 = 4944; inactive.
Against Rab1 [DRSC16808], the values are infection score, replicate 2 = 3.18; cell count, replicate 1 = 342; cell count, replicate 2 = 5748; inactive.
Silencing of Rab1 [DRSC29851] came out at: infection score, replicate 1 = 3.07; infection score, replicate 2 = 16.7; cell count, replicate 1 = 5901; cell count, replicate 2 = 5546; inactive.

2 entries already listed, arranged by “infection score, replicate 1”, ascending:
CG42264 [DRSC28051] — infection score, replicate 1: 4.99; infection score, replicate 2: 22.2; cell count, replicate 1: 5950; cell count, replicate 2: 4944; outcome: inactive
CG42264 [DRSC18075] — infection score, replicate 1: 13.9; infection score, replicate 2: 11; cell count, replicate 1: 5866; cell count, replicate 2: 5375; outcome: inactive

Additional reagents follow.
Against CG14839 [DRSC14963] the deposit lists infection score, replicate 1 = 1.39; infection score, replicate 2 = 5.38; cell count, replicate 1 = 5985; cell count, replicate 2 = 6563; inactive.
For CG14839 [DRSC27307] the deposit lists infection score, replicate 1 = 14; infection score, replicate 2 = 2.38; cell count, replicate 1 = 5772; cell count, replicate 2 = 6313; inactive.
For CG14377 [DRSC14837], the entry reads infection score, replicate 1 = 2.71; infection score, replicate 2 = 15.4; cell count, replicate 1 = 6852; cell count, replicate 2 = 6716; inactive.
Silencing of CG14377 [DRSC26342] resulted in: infection score, replicate 1 = 2.42; infection score, replicate 2 = 4.23; cell count, replicate 1 = 6151; cell count, replicate 2 = 6188; inactive.
Against toc [DRSC00169], the entry reads infection score, replicate 1 = 4.41; infection score, replicate 2 = 1.04; cell count, replicate 1 = 5557; cell count, replicate 2 = 5551; inactive.
toc [DRSC00171] scored infection score, replicate 1 = 1.94; infection score, replicate 2 = 5.8; cell count, replicate 1 = 6123; cell count, replicate 2 = 5382; inactive.
Depletion of toc [DRSC00842] gave: infection score, replicate 1 = 6.43; infection score, replicate 2 = 2.62; cell count, replicate 1 = 6279; cell count, replicate 2 = 6439; inactive.
sdt [DRSC17555] showed infection score, replicate 1 = 1.38; infection score, replicate 2 = 0.14; cell count, replicate 1 = 6092; cell count, replicate 2 = 6551; inactive.
Depletion of sdt [DRSC17556] came out at: infection score, replicate 1 = 1.56; infection score, replicate 2 = 0.27; cell count, replicate 1 = 2758; cell count, replicate 2 = 6266; inactive.
sdt [DRSC17860] scored infection score, replicate 1 = 1.56; infection score, replicate 2 = 9.09; cell count, replicate 1 = 450; cell count, replicate 2 = 1563; inactive.
After knock-down of sdt [DRSC17861] the results were infection score, replicate 1 = 4.22; infection score, replicate 2 = 5.59; cell count, replicate 1 = 6367; cell count, replicate 2 = 6746; inactive.
For sdt [DRSC18022], the entry reads infection score, replicate 1 = 8.16; infection score, replicate 2 = 10.4; cell count, replicate 1 = 6786; cell count, replicate 2 = 6354; inactive.
Knock-down of sdt [DRSC18108] came out at: infection score, replicate 1 = 5.87; infection score, replicate 2 = 7.44; cell count, replicate 1 = 6695; cell count, replicate 2 = 6840; inactive.
Silencing of sdt [DRSC26851] resulted in: infection score, replicate 1 = 2.46; infection score, replicate 2 = 2.56; cell count, replicate 1 = 6351; cell count, replicate 2 = 6641; inactive.
